The species entered for one experiment is Rattus norvegicus. As to the kind of experiment: Selectivity ratio of IC50 for rat alpha7 nACh receptor to IC50 for rat alpha9alpha10 nACh receptor.
The target of experiment [1] is Neuronal acetylcholine receptor subunit alpha-7 (Rattus norvegicus) (UniProt Q05941). As to the kind of experiment: Antagonist activity at rat alpha7 nACh receptor expressed in Xenopus oocyte assessed as inhibition of acetylcholine-induced response at -70 mV holding potential by measuring ratio of IC50 by voltage-clamp based electrophysiological assay relative to GeXIVA. The conditions noted are these: filed as antagonist.

Protein sequences, listed by entry. Tags and fused reporters are not part of them. Lines headed by an entry give the natural chain unless they say otherwise; changes in a name come on top.
UniProt Q05941, whole entry, looked up: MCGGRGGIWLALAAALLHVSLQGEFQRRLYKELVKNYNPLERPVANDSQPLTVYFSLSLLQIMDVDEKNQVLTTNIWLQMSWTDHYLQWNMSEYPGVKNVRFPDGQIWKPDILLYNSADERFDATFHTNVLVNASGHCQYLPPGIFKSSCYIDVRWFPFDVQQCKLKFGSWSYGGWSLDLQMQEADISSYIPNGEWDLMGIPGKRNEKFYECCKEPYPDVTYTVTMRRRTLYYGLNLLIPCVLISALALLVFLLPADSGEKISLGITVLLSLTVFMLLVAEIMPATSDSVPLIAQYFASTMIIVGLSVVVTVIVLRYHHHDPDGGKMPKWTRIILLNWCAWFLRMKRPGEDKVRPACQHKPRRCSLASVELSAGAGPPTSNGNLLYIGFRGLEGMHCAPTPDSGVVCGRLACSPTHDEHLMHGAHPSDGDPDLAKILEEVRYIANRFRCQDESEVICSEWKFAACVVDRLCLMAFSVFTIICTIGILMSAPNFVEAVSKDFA
UniProt P43144: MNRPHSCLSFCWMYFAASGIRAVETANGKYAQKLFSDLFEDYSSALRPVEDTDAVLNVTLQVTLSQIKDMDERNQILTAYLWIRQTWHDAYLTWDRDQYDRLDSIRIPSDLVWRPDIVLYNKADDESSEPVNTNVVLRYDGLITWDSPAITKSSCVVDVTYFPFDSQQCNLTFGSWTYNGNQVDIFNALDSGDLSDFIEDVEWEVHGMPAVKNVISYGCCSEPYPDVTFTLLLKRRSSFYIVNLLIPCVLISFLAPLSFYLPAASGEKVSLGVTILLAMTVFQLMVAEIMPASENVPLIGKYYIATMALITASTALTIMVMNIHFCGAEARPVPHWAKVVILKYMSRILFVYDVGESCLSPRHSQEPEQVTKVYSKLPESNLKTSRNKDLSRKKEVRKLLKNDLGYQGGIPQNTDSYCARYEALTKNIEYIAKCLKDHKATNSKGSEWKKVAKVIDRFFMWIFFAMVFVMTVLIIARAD
UniProt Q9JLB5: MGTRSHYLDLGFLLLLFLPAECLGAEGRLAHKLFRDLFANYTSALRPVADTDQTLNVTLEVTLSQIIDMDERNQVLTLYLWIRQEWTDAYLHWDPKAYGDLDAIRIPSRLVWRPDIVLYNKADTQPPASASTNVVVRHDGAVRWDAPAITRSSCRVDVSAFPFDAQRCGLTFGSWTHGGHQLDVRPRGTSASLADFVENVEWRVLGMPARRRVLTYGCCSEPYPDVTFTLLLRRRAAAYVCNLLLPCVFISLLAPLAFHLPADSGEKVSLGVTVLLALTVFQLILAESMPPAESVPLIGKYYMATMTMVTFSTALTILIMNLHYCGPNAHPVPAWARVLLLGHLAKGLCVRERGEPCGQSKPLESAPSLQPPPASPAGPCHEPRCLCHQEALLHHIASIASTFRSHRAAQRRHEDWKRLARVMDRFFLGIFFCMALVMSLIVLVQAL

The target of experiment [2] is Nicotinic acetylcholine receptor alpha9/alpha10 (Rattus norvegicus) (UniProt P43144+Q9JLB5). As to the kind of experiment: Antagonist activity at rat alpha9alpha10 nACh receptor expressed in Xenopus oocyte assessed as inhibition of acetylcholine-induced response at -70 mV holding potential by measuring ratio of IC50 by voltage-clamp based electrophysiological assay relative to GeXIVA. The conditions noted are these: filed as antagonist. Type of experiment: cell-based.

With `CC[C@H](C)[C@@H]1NC(=O)[C@H](CCCNC(=N)N)NC(=O)[C@H](CCCNC(=N)N)NC(=O)[C@@H](NC(=O)[C@H](Cc2ccc(O)cc2)NC(=O)[C@H](CCCNC(=N)N)NC(=O)[C@H](CCCNC(=N)N)NC(=O)[C@H](CCCNC(=N)N)NC(=O)[C@H](CCCNC(=N)N)NC(=O)[C@H](CC(=O)O)NC(=O)[C@H](Cc2ccc(O)cc2)NC(=O)[C@@H]2CCCN2C(=O)[C@H](CO)NC(=O)[C@H](CCCNC(=N)N)NC(=O)[C@@H]2CSSC[C@H](NC(=O)[C@@H](N)[C@@H](C)O)C(=O)N[C@@H](CCCNC(=N)N)C(=O)N[C@@H](C)C(=O)N[C@@H](CO)C(=O)NCC(=O)N[C@@H](CCCNC(=N)N)C(=O)N[C@@H](Cc3ccc(O)cc3)C(=O)N2)CSSC[C@@H](C(=O)N[C@H](C(=O)O)C(C)C)NC(=O)[C@H](C)NC(=O)[C@H](CC(=O)O)NC(=O)[C@H]([C@@H](C)O)NC1=O`, the Ratio IC50 in the experiment filed under Rattus norvegicus came to 104; in experiment [1], 2.2; in experiment [2], 1.2.

As for `CC[C@H](C)[C@@H]1NC(=O)[C@H](CCCNC(=N)N)NC(=O)[C@H](CCCNC(=N)N)NC(=O)[C@@H](NC(=O)[C@H](Cc2ccc(O)cc2)NC(=O)[C@H](CCCNC(=N)N)NC(=O)[C@H](CCCNC(=N)N)NC(=O)[C@H](C)NC(=O)[C@H](CCCNC(=N)N)NC(=O)[C@H](CC(=O)O)NC(=O)[C@H](Cc2ccc(O)cc2)NC(=O)[C@@H]2CCCN2C(=O)[C@H](CO)NC(=O)[C@H](CCCNC(=N)N)NC(=O)[C@@H]2CSSC[C@H](NC(=O)[C@@H](N)[C@@H](C)O)C(=O)N[C@@H](CCCNC(=N)N)C(=O)N[C@@H](CO)C(=O)N[C@@H](CO)C(=O)NCC(=O)N[C@@H](CCCNC(=N)N)C(=O)N[C@@H](Cc3ccc(O)cc3)C(=O)N2)CSSC[C@@H](C(=O)N[C@H](C(=O)O)C(C)C)NC(=O)[C@H](C)NC(=O)[C@H](CC(=O)O)NC(=O)[C@H]([C@@H](C)O)NC1=O`, the Ratio IC50 turned out to be 168 in the experiment listed under Rattus norvegicus, 4.7 in experiment [1] and 1.5 in experiment [2].

`CC[C@H](C)[C@@H]1NC(=O)[C@H](CCCNC(=N)N)NC(=O)[C@H](C)NC(=O)[C@@H](NC(=O)[C@H](Cc2ccc(O)cc2)NC(=O)[C@H](CCCNC(=N)N)NC(=O)[C@H](CCCNC(=N)N)NC(=O)[C@H](CCCNC(=N)N)NC(=O)[C@H](CCCNC(=N)N)NC(=O)[C@H](CC(=O)O)NC(=O)[C@H](Cc2ccc(O)cc2)NC(=O)[C@@H]2CCCN2C(=O)[C@H](CO)NC(=O)[C@H](CCCNC(=N)N)NC(=O)[C@@H]2CSSC[C@H](NC(=O)[C@@H](N)[C@@H](C)O)C(=O)N[C@@H](CCCNC(=N)N)C(=O)N[C@@H](CO)C(=O)N[C@@H](CO)C(=O)NCC(=O)N[C@@H](CCCNC(=N)N)C(=O)N[C@@H](Cc3ccc(O)cc3)C(=O)N2)CSSC[C@@H](C(=O)N[C@H](C(=O)O)C(C)C)NC(=O)[C@H](C)NC(=O)[C@H](CC(=O)O)NC(=O)[C@H]([C@@H](C)O)NC1=O`: the Ratio IC50 in the experiment listed under Rattus norvegicus is 77.1; in experiment [1] it was 1.7; in experiment [2] it was 1.2.

Turning to `CC[C@H](C)[C@@H]1NC(=O)[C@H](CCCNC(=N)N)NC(=O)[C@H](CCCNC(=N)N)NC(=O)[C@@H](NC(=O)[C@H](Cc2ccc(O)cc2)NC(=O)[C@H](CCCNC(=N)N)NC(=O)[C@H](CCCNC(=N)N)NC(=O)[C@H](CCCNC(=N)N)NC(=O)[C@H](CCCNC(=N)N)NC(=O)[C@H](C)NC(=O)[C@H](Cc2ccc(O)cc2)NC(=O)[C@@H]2CCCN2C(=O)[C@H](CO)NC(=O)[C@H](CCCNC(=N)N)NC(=O)[C@@H]2CSSC[C@H](NC(=O)[C@@H](N)[C@@H](C)O)C(=O)N[C@@H](CCCNC(=N)N)C(=O)N[C@@H](CO)C(=O)N[C@@H](CO)C(=O)NCC(=O)N[C@@H](CCCNC(=N)N)C(=O)N[C@@H](Cc3ccc(O)cc3)C(=O)N2)CSSC[C@@H](C(=O)N[C@H](C(=O)O)C(C)C)NC(=O)[C@H](C)NC(=O)[C@H](CC(=O)O)NC(=O)[C@H]([C@@H](C)O)NC1=O`, the Ratio IC50 in the experiment listed under Rattus norvegicus worked out at 40; in experiment [1], 0.9; in experiment [2] it was 1.2.

`CC(C)[C@H](NC(=O)[C@@H]1CSSC[C@H](NC(=O)[C@H](Cc2ccc(O)cc2)NC(=O)[C@H](CCCNC(=N)N)NC(=O)[C@H](CCCNC(=N)N)NC(=O)[C@H](CCCNC(=N)N)NC(=O)[C@H](CCCNC(=N)N)NC(=O)[C@H](CC(=O)O)NC(=O)[C@H](Cc2ccc(O)cc2)NC(=O)[C@@H]2CCCN2C(=O)[C@H](CO)NC(=O)[C@H](CCCNC(=N)N)NC(=O)[C@@H]2CSSC[C@H](NC(=O)[C@@H](N)[C@@H](C)O)C(=O)N[C@@H](CCCNC(=N)N)C(=O)N[C@@H](CO)C(=O)N[C@@H](CO)C(=O)NCC(=O)N[C@@H](CCCNC(=N)N)C(=O)N[C@@H](Cc3ccc(O)cc3)C(=O)N2)C(=O)N[C@@H](CCCNC(=N)N)C(=O)N[C@@H](CCCNC(=N)N)C(=O)N[C@@H](C)C(=O)N[C@@H]([C@@H](C)O)C(=O)N[C@@H](CC(=O)O)C(=O)N[C@@H](C)C(=O)N1)C(=O)O`: the Ratio IC50 in the experiment listed under Rattus norvegicus came to 88.7; in experiment [1] it was 2.2; in experiment [2], 1.3.

As to `CC[C@H](C)[C@@H]1NC(=O)[C@H](CCCNC(=N)N)NC(=O)[C@H](CCCNC(=N)N)NC(=O)[C@@H](NC(=O)[C@H](Cc2ccc(O)cc2)NC(=O)[C@H](CCCNC(=N)N)NC(=O)[C@H](CCCNC(=N)N)NC(=O)[C@H](CCCNC(=N)N)NC(=O)[C@H](C)NC(=O)[C@H](CC(=O)O)NC(=O)[C@H](Cc2ccc(O)cc2)NC(=O)[C@@H]2CCCN2C(=O)[C@H](CO)NC(=O)[C@H](CCCNC(=N)N)NC(=O)[C@@H]2CSSC[C@H](NC(=O)[C@H](N)[C@H](C)O)C(=O)N[C@@H](CCCNC(=N)N)C(=O)N[C@@H](CO)C(=O)N[C@@H](CO)C(=O)NCC(=O)N[C@@H](CCCNC(=N)N)C(=O)N[C@@H](Cc3ccc(O)cc3)C(=O)N2)CSSC[C@@H](C(=O)N[C@H](C(=O)O)C(C)C)NC(=O)[C@H](C)NC(=O)[C@H](CC(=O)O)NC(=O)[C@H]([C@@H](C)O)NC1=O`, the Ratio IC50 in the experiment listed under Rattus norvegicus worked out at 140; in experiment [1] it was 6.9; in experiment [2], 2.7.

In the case of `CC[C@H](C)[C@@H]1NC(=O)[C@H](CCCNC(=N)N)NC(=O)[C@H](CCCNC(=N)N)NC(=O)[C@@H]2CSSC[C@H](NC(=O)[C@H](Cc3ccc(O)cc3)NC(=O)[C@H](CCCNC(=N)N)NC(=O)CNC(=O)[C@H](CO)NC(=O)[C@H](CO)NC(=O)[C@H](CCCNC(=N)N)NC(=O)[C@@H](NC(=O)[C@@H](N)[C@@H](C)O)CSSC[C@@H](C(=O)N[C@H](C(=O)O)C(C)C)NC(=O)[C@H](C)NC(=O)[C@H](CC(=O)O)NC(=O)[C@H]([C@@H](C)O)NC1=O)C(=O)N[C@@H](CCCNC(=N)N)C(=O)N[C@@H](C)C(=O)N1CCC[C@H]1C(=O)N[C@@H](Cc1ccc(O)cc1)C(=O)N[C@@H](CC(=O)O)C(=O)N[C@@H](CCCNC(=N)N)C(=O)N[C@@H](CCCNC(=N)N)C(=O)N[C@@H](CCCNC(=N)N)C(=O)N[C@@H](CCCNC(=N)N)C(=O)N[C@@H](Cc1ccc(O)cc1)C(=O)N2`, the Ratio IC50 turned out to be 560 in the experiment listed under Rattus norvegicus, 2 in experiment [1] and 0.6 in experiment [2].

Values taken from ChEMBL document CHEMBL5346973 (J Med Chem, 2023).
